## Potato spindle tuber viroid, loop 6: variant abundance in plants

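Three N. benthamiana plants were inoculated with the whole mutant pool. Progeny were sequenced from the inoculated region (day 5), the margin of the inoculated leaf (day 10) and systemic leaves (day 12).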

The pool varies loop 6 of the PSTVd intermediate strain in the pattern UNNNCGNNNG; wild type is UGACCGCGAG (upper and lower strand joined, each 5' to 3', the first 5 letters being the upper strand, closing pairs included).

Values are reads per thousand in the sample; higher means more abundant, 0 means not found. Each value is the mean of three plants. "Pool" is the share in the plasmid pool used as inoculum, on the same scale. The inoculated region was read from the minus strand, the other sites from the plus strand. Wild type was 20.7 per thousand in the pool and the most common sequence in every sample (inoculated region 195, 198, 203; leaf margin 629, 591, 734; systemic leaves 942, 870, 868). Samples held 36,220 to 57,551 reads, so the smallest values rest on one or two reads. The authors trace changes outside the varied positions to PCR and sequencing errors or to mutation in the plant; presence does not show that a variant is infectious alone.

With UCUCCGGAAG (pool 0.157) the assay gave inoculated region 0.101; leaf margin 0; systemic leaves 0.
With UCCCCGAGUG (pool 0.353) the assay gave inoculated region 0.0712; leaf margin 0.0260; systemic leaves 0.
With UAGUCGGUGG (pool 0.235) the assay gave inoculated region 0.0716; leaf margin 0; systemic leaves 0.
With UGAUCGGGUG (pool 0.261) the assay gave inoculated region 0.626; leaf margin 0.0592; systemic leaves 0.
With UGGCCGCUGG (pool 0.131) the assay gave inoculated region 0.187; leaf margin 0; systemic leaves 0.
With UCGACGGUAG (pool 0.157) the assay gave inoculated region 0.136; leaf margin 0; systemic leaves 0.
With UGCCCGCUGG (pool 0.0654) the assay gave inoculated region 0.0821; leaf margin 0; systemic leaves 0.
With UGGGCGUGUG (pool 0.222) the assay gave inoculated region 0.101; leaf margin 0; systemic leaves 0.
With UGCGCGCGGG (pool 0.222) the assay gave inoculated region 0.101; leaf margin 0.0232; systemic leaves 0.
With UUAACGUCGG (pool 0.314) the assay gave inoculated region 0.0951; leaf margin 0.00773; systemic leaves 0.00684.
With UCAGCGGGGG (pool 0.105) the assay gave inoculated region 0.0532; leaf margin 0.0169; systemic leaves 0.
With UUUUCGCCUG (pool 0.196) the assay gave inoculated region 0.0597; leaf margin 0.00920; systemic leaves 0.
With UACACGCGGG (pool 0.170) the assay gave inoculated region 0.0889; leaf margin 0; systemic leaves 0.
With UCAGCGGUGG (pool 0.288) the assay gave inoculated region 0.0785; leaf margin 0.0169; systemic leaves 0.
With UUCCCGGUGG (pool 0.248) the assay gave inoculated region 0.0715; leaf margin 0.00841; systemic leaves 0.
With UCAACGAUAG (pool 0.209) the assay gave inoculated region 0.191; leaf margin 0.0232; systemic leaves 0.
With UACUCGUGUG (pool 0.248) the assay gave inoculated region 0.0838; leaf margin 0; systemic leaves 0.
With UAUACGUUAG (pool 0.745) the assay gave inoculated region 0.0958; leaf margin 0.0750; systemic leaves 0.
With UCUUCGGGAG (pool 0.183) the assay gave inoculated region 0.144; leaf margin 0; systemic leaves 0.0531.
With UCUCCGUUUG (pool 0.235) the assay gave inoculated region 0.0529; leaf margin 0.00773; systemic leaves 0.
With UUUACGCGCG (pool 0.170) the assay gave inoculated region 0.125; leaf margin 0.00773; systemic leaves 0.
With UCGGCGUUAG (pool 0.458) the assay gave inoculated region 0.114; leaf margin 0; systemic leaves 0.00684.
With UCCCCGAAGG (pool 0.157) the assay gave inoculated region 0.0829; leaf margin 0; systemic leaves 0.
With UACGCGGCGG (pool 0.222) the assay gave inoculated region 0.0599; leaf margin 0.00773; systemic leaves 0.

The last 3 entries again:

sequence,pool,inoculated region,leaf margin,systemic leaves
UCGGCGUUAG,0.458,0.114,0,0.00684
UCCCCGAAGG,0.157,0.0829,0,0
UACGCGGCGG,0.222,0.0599,0.00773,0

Source: Wu et al. 2024 (doi:10.1371/journal.ppat.1012142), supplementary data.